Results of unrelated studies side by side (data: NIAID ChemDB).

Shared fields: whole-cell or culture tests; species: HIV-1; cell line: PBMC; measure: fold resistance

Blank or dashed fields: not listed here. Conditions beyond the fields shown may differ between rows. Fold resistance has wild type as its base.

smiles | strain or isolate | changes | method | value
S=C(NCCCn1ccnc1)Nc1nccs1 | A17 | RT-Y181C | p24 | >100000
Cc1cn([C@H]2C[C@H](N=[N+]=[N-])[C@@H](CO)O2)c(=O)[nH]c1=O | 7324-1 NRTI resistant recombinant | RT-M41L D67N T69N K70R T215F K219E | RT activity | 923
Nc1nc(NC2CC2)c2ncn([C@H]3C=C[C@@H](CO)O3)c2n1 | BRU PITT.(RT-M184V) | RT-M184V | cytopathic effect / MTT | 0.5
Cc1ccnc2c1NC(=O)c1cccnc1N2C1CC1 | RT-MDR(RT-V106A) | RT-V106A | - | 147
Cc1cn([C@H]2C[C@H](N=[N+]=[N-])[C@@H](CO)O2)c(=O)[nH]c1=O | 6 clinical isolates AZT-resistant | - | p24 | 5.33
Nc1ccn([C@@H]2CO[C@H](CO)S2)c(=O)n1 | HXB2D (RT-M184V) | RT-M184V | p24 | 0.53
O=c1[nH]cnc2c1ncn2[C@H]1CC[C@@H](CO)O1 | HXB2D (RT-K65R) | RT-K65R | p24 / ELISA | 5
COc1ccc(C[C@H](NC(=O)c2cccc(O)c2C)[C@H](O)C(=O)N2CSC(C)(C)[C@H]2C(=O)NCc2ccccc2C)cc1 | 052-52 PI-resistant | PR-L10R M46I L63P A71V V82T I84V | RT activity | 5
O=c1[nH]cnc2c1ncn2[C@H]1CC[C@@H](CO)O1 | XM-Q151M | RT-A62V V75I F77C F116Y Q151M | p24 | 3.8
CCNc1cccnc1N1CCN(C(=O)c2cc3cc(OC)ccc3[nH]2)CC1 | BaL | RT-V106A | p24 | 17
CC(C)(C)NC(=O)[C@@H]1C[C@@H]2CCCC[C@@H]2CN1C[C@@H](O)[C@H](Cc1ccccc1)NC(=O)[C@H](CC(N)=O)NC(=O)c1ccc2ccccc2n1 | JSL | MDR | p24 | 19
CC(C)Nc1cccnc1N1CCN(C(=O)c2cc3cc(NS(C)(=O)=O)ccc3[nH]2)CC1 | NRTI resistant (RT Y181C K103N) A17 variant | RT-Y181C K103N | p24 | 11100
C[C@@H](NC(=S)Nc1ccc(Br)cn1)c1cccc2ccccc12 | A17V(RT-K103N Y181C) | RT-K103N Y181C | p24 | 287
C[C@H](CNC(=S)Nc1ccc(Cl)cn1)c1ccccc1 | NNRTI-resistant (RT Y181C K103N) A17V | RT-Y181C K103N | p24 | >2631
CC(C)CN(C[C@@H](O)[C@H](Cc1ccccc1)NC(=O)O[C@@H]1[C@@H]2CCCO[C@@H]2O[C@H]1C)S(=O)(=O)c1ccc(N)cc1 | MM | PR-L10I K43T M46I I54V L63P A71V V82A L90M Q92K | p24 | 5
Nc1ncnc2c1ncn2CCOCP(=O)(O)O | HXB2D (RT-K65R) | RT-K65R | p24 | 15.6
CC(C)Nc1cccnc1N1CCN(C(=O)c2cc3cc(NS(C)(=O)=O)ccc3[nH]2)CC1 | 410 clinical isolates AZT-resistant | - | p24 | >100
Nc1ccn([C@@H]2CS[C@H](CO)O2)c(=O)n1 | 7295-1 NRTI resistant recombinant | RT-D67N T69N K70R M184V T215F K219Q | RT activity | >300
O=c1[nH]cnc2c1ncn2[C@H]1CC[C@@H](CO)O1 | Recombinant | RT-A62V | p24 | 0.15
Nc1ccn([C@H]2CO[C@@H](CO)S2)c(=O)n1 | HXB2D (RT-K65R) | RT-K65R | p24 | 35
Cc1cn([C@H]2C[C@H](N=[N+]=[N-])[C@@H](CO)O2)c(=O)[nH]c1=O | 3TC-resistant (RT M184V) | RT-M184V | - | 0.3
COc1ccc(S(=O)(=O)N(CC(C)C)C[C@@H](O)[C@H](Cc2ccccc2)NC(=O)O[C@H]2CO[C@H]3OCC[C@H]32)cc1 | Clinical isolate | PR-L10R N37D M46I I62V L63P A71V G73S V77I V82T L90M I93L | p24 | 1
Cc1cn([C@H]2C=C[C@@H](CO)O2)c(=O)[nH]c1=O | MM | MDR | p24 | 6
Cc1cccc(C)c1OCC(=O)N[C@@H](Cc1ccccc1)[C@@H](O)C[C@H](Cc1ccccc1)NC(=O)[C@H](C(C)C)N1CCCNC1=O | 1026-40 PI-resistant | PR-L10I M46I I54V L63P A71V V82A L90M | RT activity | 306
CC(C)(C)NC(=O)[C@@H]1CN(Cc2cccnc2)CCN1C[C@@H](O)C[C@@H](Cc1ccccc1)C(=O)N[C@H]1c2ccccc2C[C@H]1O | Clinical isolate | PR-L10I I15V E35D N37E K45R I54V L63P A71V V82T L90M I93L C95F | p24 | 37.7
S=C(NCCc1cccs1)Nc1ccc(Br)cn1 | NRTI resistant (RT Y181C K103N) A17 variant | RT-Y181C K103N | p24 | 106.6
Nc1ccn([C@@H]2O[C@H](CO)C=C2F)c(=O)n1 | 3TC-resistant (RT M184V) | RT-M184V | - | 0.2
Nc1nc(=O)n([C@@H]2CS[C@H](CO)O2)cc1F | 3TC-resistant (RT M184V) Clinical isolate | RT-M184V | p24 | 63
Nc1nc(=O)n([C@@H]2CO[C@H](CO)S2)cc1F | HxB2D(RT-D67G) | RT-D67G | p24 | 4.64
C[C@@H](CNC(=S)Nc1ccccn1)c1ccccc1 | NNRTI-resistant (RT Y181C) A17 | RT-Y181C | p24 | 76
C[C@H](CNC(=S)Nc1ccc(Br)cn1)c1ccccc1 | NNRTI-resistant (RT Y181C K103N) A17V | RT-Y181C K103N | p24 | 41
COc1cccc(C[C@H](NC(=O)c2cccc(O)c2C)[C@H](O)C(=O)N2CSC(C)(C)[C@H]2C(=O)NCc2c(C)cccc2C)c1 | 1026-40 PI-resistant | PR-L10I M46I I54V L63P A71V V82A L90M | RT activity | 9
Cc1cn([C@H]2C[C@H](N=[N+]=[N-])[C@@H](CO)O2)c(=O)[nH]c1=O | XM-Q151M | RT-A62V V75I F77C F116Y Q151M | p24 | >3130
CCCCN1C(=O)C(CC2CCCCC2)NC(=O)C12CCN(Cc1ccc3c(c1)OCCO3)CC2 | JSL | MDR | p24 | 1
C[C@@H](CNC(=S)Nc1ccccn1)c1ccccc1 | NNRTI-resistant (RT Y181C) A17 | RT-Y181C | p24 | 83
C[C@@H]1O[C@H]2OCCC[C@H]2[C@H]1OC(=O)N[C@@H](Cc1ccccc1)[C@H](O)CN1C[C@H]2CCCC[C@H]2C[C@H]1C(=O)NC(C)(C)C | MM | PR-L10I K43T M46I I54V L63P A71V V82A L90M Q92K | p24 | >4
CC(C)Nc1cccnc1N1CCN(C(=O)c2cc3cc(NS(C)(=O)=O)ccc3[nH]2)CC1 | BaL | RT-P236L | p24 | 243
Nc1ccn([C@H]2CC[C@@H](CO)O2)c(=O)n1 | BCF08 | RT-A98G Y181C | - | 0.4
Cc1csc(NC(=S)N[C@H](C)c2ccccc2)n1 | NNRTI-resistant (RT Y181C) A17 | RT-Y181C | p24 | >164
S=C(NCCc1ccccn1)Nc1ccc(Br)cn1 | RT-MDR(RT-V106A) | RT-V106A | - | 2.86
Nc1ccn([C@H]2CC[C@@H](CO)O2)c(=O)n1 | - | RT-L74V T215Y K219Q | p24 | 5.3
Cc1c(O)cccc1C(=O)N[C@@H](CSc1ccccc1)[C@H](O)CN1C[C@H]2CCCC[C@H]2C[C@H]1C(=O)NC(C)(C)C | MM | MDR | p24 | >71
O=c1[nH]cnc2c1ncn2[C@H]1CC[C@@H](CO)O1 | - | RT-L74V | p24 | 2.5
Cc1csc(NC(=S)N[C@H](C)c2cccc3ccccc23)n1 | RT multidrug-resistant (L74V V106A T215Y) | RT-L74V V106A T215Y | p24 | 1.9
CC(C)CN(C[C@@H](O)[C@H](Cc1ccccc1)NC(=O)O[C@H]1CCOC1)S(=O)(=O)c1ccc(N)cc1 | Clinical isolate | PR-L10I V11I T12E I15V L19I R41K M46L L63 A71T V82A L90M | p24 | 12.4
Cc1ccc(NC(=S)NC[C@H](C)c2ccccc2)nc1 | NNRTI-resistant (RT Y181C K103N) A17V | RT-Y181C K103N | p24 | 600
Cc1ccc(CCNC(=S)Nc2ccc(Br)cn2)cc1 | A17 | RT-K103N Y181C | p24 | >14300
Cc1ccccc1CNC(=O)[C@H]1N(C(=O)[C@@H](O)[C@H](Cc2ccccc2)NC(=O)c2cccc(O)c2C)CSC1(C)C | 1002-60 PI-resistant | PR-L10I M46I I54V L63P V82F L90M | RT activity | 2
Cc1cn([C@H]2C=C[C@@H](CO)O2)c(=O)[nH]c1=O | 4755-5 NRTI resistant recombinant | RT-M41L E44D D67N T69D Y118I M184V L210W T215Y | RT activity | 3.9
C[C@@H](NC(=S)Nc1ccc(Cl)cn1)c1cccc2ccccc12 | RT multidrug-resistant (L74V V106A T215Y) | RT-L74V V106A T215Y | p24 | 0.2
CC(C)CN(C[C@@H](O)[C@H](Cc1ccccc1)NC(=O)O[C@H]1CCOC1)S(=O)(=O)c1ccc(N)cc1 | 1026-40 PI-resistant | PR-L10I M46I I54V L63P A71V V82A L90M | RT activity | 29
Nc1nc(=O)n([C@H]2CO[C@@H](CO)S2)cc1F | HXB2D (RT-M184V) | RT-M184V | p24 | 0.667
C[C@@H]1O[C@@H]2OCCC[C@@H]2[C@@H]1OC(=O)N[C@@H](Cc1ccccc1)[C@H](O)CN1C[C@H]2CCCC[C@H]2C[C@H]1C(=O)NC(C)(C)C | TM | PR-L10I K14R R41K M46I I54V L63P A71V V82A L90M I93L | p24 | >42
Cc1cn([C@H]2C[C@H](F)[C@@H](CO)O2)c(=O)[nH]c1=O | A(RT-Q151M) | RT-Q151M | antigen | 0.4
C[C@@H](CNC(=S)Nc1ccc(Br)cn1)c1ccccc1 | NNRTI-resistant (RT Y181C) A17 | RT-Y181C | p24 | 223
O=c1[nH]cnc2c1ncn2[C@H]1CC[C@@H](CO)O1 | JSL | MDR | p24 | 5
Nc1nc(NC2CC2)c2ncn([C@H]3C=C[C@@H](CO)C3)c2n1 | 4755-5 NRTI resistant recombinant | RT-M41L E44D D67N T69D Y118I M184V L210W T215Y | RT activity | 7.7
Cc1ccnc2c1NC(=O)c1cccnc1N2C1CC1 | BCF03 | RT-A98G Y181C | - | 410
C[C@@H](NC(=S)Nc1ccc(Cl)cn1)c1cccc2ccccc12 | NNRTI-resistant (RT Y181C) A17 | RT-Y181C | p24 | 43
O=c1[nH]cnc2c1ncn2[C@H]1CC[C@@H](CO)O1 | BCF03 | RT-A98G Y181C | - | 1.41
C[C@@H](CNC(=S)Nc1ccc(Cl)cn1)c1ccccc1 | NNRTI-resistant (RT Y181C) A17 | RT-Y181C | p24 | >300
Cc1cn([C@H]2C[C@H](N=[N+]=[N-])[C@@H](CO)O2)c(=O)[nH]c1=O | Recombinant | RT-F77L | p24 | 0
C[C@H](CNC(=S)Nc1ccc(Br)cn1)c1ccccc1 | NNRTI-resistant (RT Y181C) A17 | RT-Y181C | p24 | 40
Cc1ccc(NC(=S)N[C@H](C)c2cccc3ccccc23)nc1 | A17 | RT-Y181C | p24 | 6

For reference, 9 entries again:

{"smiles": "Nc1nc(=O)n([C@@H]2CS[C@H](CO)O2)cc1F", "strain or isolate": "3TC-resistant (RT M184V) Clinical isolate", "changes": "RT-M184V", "method": "p24", "value": "63"}
{"smiles": "Cc1c(O)cccc1C(=O)N[C@@H](CSc1ccccc1)[C@H](O)CN1C[C@H]2CCCC[C@H]2C[C@H]1C(=O)NC(C)(C)C", "strain or isolate": "MM", "changes": "MDR", "method": "p24", "value": ">71"}
{"smiles": "Cc1ccnc2c1NC(=O)c1cccnc1N2C1CC1", "strain or isolate": "RT-MDR(RT-V106A)", "changes": "RT-V106A", "value": "147"}
{"smiles": "O=c1[nH]cnc2c1ncn2[C@H]1CC[C@@H](CO)O1", "strain or isolate": "Recombinant", "changes": "RT-A62V", "method": "p24", "value": "0.15"}
{"smiles": "Nc1ccn([C@H]2CC[C@@H](CO)O2)c(=O)n1", "strain or isolate": "BCF08", "changes": "RT-A98G Y181C", "value": "0.4"}
{"smiles": "Cc1ccccc1CNC(=O)[C@H]1N(C(=O)[C@@H](O)[C@H](Cc2ccccc2)NC(=O)c2cccc(O)c2C)CSC1(C)C", "strain or isolate": "1002-60 PI-resistant", "changes": "PR-L10I M46I I54V L63P V82F L90M", "method": "RT activity", "value": "2"}
{"smiles": "Nc1ccn([C@H]2CC[C@@H](CO)O2)c(=O)n1", "changes": "RT-L74V T215Y K219Q", "method": "p24", "value": "5.3"}
{"smiles": "Nc1nc(=O)n([C@@H]2CO[C@H](CO)S2)cc1F", "strain or isolate": "HxB2D(RT-D67G)", "changes": "RT-D67G", "method": "p24", "value": "4.64"}
{"smiles": "CC(C)(C)NC(=O)[C@@H]1C[C@@H]2CCCC[C@@H]2CN1C[C@@H](O)[C@H](Cc1ccccc1)NC(=O)[C@H](CC(N)=O)NC(=O)c1ccc2ccccc2n1", "strain or isolate": "JSL", "changes": "MDR", "method": "p24", "value": "19"}